Reference: patent US20220168221A1 (priority 2020, published 2022)

Assays:
[1] = system: Coccidioides posadasii strain Silveira (ATCC 28868); type: in vivo
Coccidioides posadasii = type: in vivo
[2] = Stability of nikZ in aqueous solution (DiW); type: physicochemical; details: during 96 hours, 20-25° C.
[3] = Toxicology study in mice, oral gavage q.d. for 7 days; type: in vivo, mouse; details: 2000 mg/kg/day q.d. by oral gavage, after 7 days
Coccidioides = details: cited from earlier work
[4] = Mouse weights, drinking and clinical observation in Study 1; details: for signs of distress (ruffled fur, apathy, severe agitation): in general, daily examination
[5] = IP 1000 mg/kg BID, injected as suspension

For `C[C@@H]([C@H](N)C(=O)N[C@H](C(=O)O)[C@H]1O[C@@H](n2ccc(=O)[nH]c2=O)[C@H](O)[C@@H]1O)[C@H](O)c1ccc(O)cn1` [nikZ, nikkomycin Z], the clinical outcome ([1]; 5 days therapy) was “essentially eradicating the disease”, the “protection from residual infection” value ([1]; about 200 arthroconidia IV, 200 mg/kg/day (and higher)) was “almost completely protected” and the “fungal loads in lungs vs water” value ([1]; all doses (200, 600, 2000 mg/kg/day), DiW or IP BID) was “significantly decreased”. The “fungal loads in livers vs water” value ([1]; all doses, DiW or IP BID) was “significantly decreased”, the “fungal loads in spleens vs water” value ([1]; all doses, DiW or IP BID) was “significantly decreased” and the “fungal loads in livers compared with FCZ 100 mg/kg” value ([1]; several doses) was “significantly more anti-fungal”. For the same compound, the “fungal loads in lungs compared with FCZ 100 mg/kg” value ([1]; several doses) was “significantly more anti-fungal”, the improvement of disease (Coccidioides posadasii; 8 mg/kg/day DiW) was “some improvement” and the survival (Coccidioides posadasii; 30.6 mg/kg/day) was 80%. For the same compound, the “inhibition of fungal proliferation” value (Coccidioides posadasii; 408 mg/kg/day (target was 600)) was “pretty much maximal inhibition of fungal proliferation”, the “losses (survival curve)” value (Coccidioides posadasii; 8.4, 30.6 and 134 mg/kg/day) was “decreasing losses” and the therapeutic benefit (Coccidioides posadasii; about 1000 arthroconidia, 20 mg/kg/day) was “showed therapeutic benefit”. For the same compound, the reduction of disease (Coccidioides posadasii; about 1000 arthroconidia, 150 mg/kg/day) was about 75%, the reduction of disease (Coccidioides posadasii; about 1000 arthroconidia, 400 mg/kg/day) was 90% and the “efficacy compared with FCZ 100 mg/kg/day” value (Coccidioides posadasii; all levels of nikZ) was “more effective than this reference dose of FCZ”. The survival (Coccidioides posadasii; doses higher than 134 mg/kg/day) was “all higher doses survived”, the “reduction in disseminated disease” value (Coccidioides posadasii; most severe challenge, roughly 78 mg/kg/day in a mouse, 5 days of therapy) was “about 50%” and the “potency of DiW in an in vitro system” value [2] was “essentially unchanged”. The “signs of abnormality or distress” value [3] was “no signs of abnormality or distress”, the “expected MEC (minimum effective concentration)” value (Coccidioides; reported and anticipated) was 62.5 ng/mL and the MIC level (Coccidioides; reports and expectations) was “about 63 ng/ml”. The anticipated therapeutic level (Coccidioides; sometimes cited) was 65 ng/mL, the “decrease in drinking on the last day” value ([4]; DiW 2000 mpk/day group) was “about 10%” and the “behaviour immediately after application” value [4, 5] was “apathetic and showed ruffled fur”. For the same compound, the recovery after application [4, 5] was “back to normal within an hour”, the “% gain (weight)” value ([4]; PO 600 mg/kg/day, 600 mg/kg/day) was 9.4% and the “% gain (weight)” value ([4]; PO 2000 mg/kg/day, 2000 mg/kg/day) was 14.4%. The “signs of distress (ruffled fur, apathy, severe agitation)” value [4] was “did not show signs of distress”.

For `OC(Cn1cncn1)(Cn1cncn1)c1ccc(F)cc1F` [FCZ, fluconazole, reference compound], the survival (Coccidioides posadasii; 100 mg/kg/day, FIG. 3E) was “survived to the end of the brief study period”, the protection (Coccidioides posadasii; 100 mg/kg/day, qd) was “only slight protection” and the “signs of distress (ruffled fur, apathy, severe agitation)” value [4] was “did not show signs of distress”.

Where two headings read alike, the source gives them in different places.
